# Data taken from US20240083910A1, “AMIDO-SUBSTITUTED PYRIDYL COMPOUNDS AND METHODS OF USE THEREOF FOR THE TREATMENT OF HERPESVIRUSES” (Merck Sharp & Dohme LLC, priority 2020, published 2024).
# Chains of the proteins cited; added tags and fusions are not shown.
# UniProt P08546, whole entry: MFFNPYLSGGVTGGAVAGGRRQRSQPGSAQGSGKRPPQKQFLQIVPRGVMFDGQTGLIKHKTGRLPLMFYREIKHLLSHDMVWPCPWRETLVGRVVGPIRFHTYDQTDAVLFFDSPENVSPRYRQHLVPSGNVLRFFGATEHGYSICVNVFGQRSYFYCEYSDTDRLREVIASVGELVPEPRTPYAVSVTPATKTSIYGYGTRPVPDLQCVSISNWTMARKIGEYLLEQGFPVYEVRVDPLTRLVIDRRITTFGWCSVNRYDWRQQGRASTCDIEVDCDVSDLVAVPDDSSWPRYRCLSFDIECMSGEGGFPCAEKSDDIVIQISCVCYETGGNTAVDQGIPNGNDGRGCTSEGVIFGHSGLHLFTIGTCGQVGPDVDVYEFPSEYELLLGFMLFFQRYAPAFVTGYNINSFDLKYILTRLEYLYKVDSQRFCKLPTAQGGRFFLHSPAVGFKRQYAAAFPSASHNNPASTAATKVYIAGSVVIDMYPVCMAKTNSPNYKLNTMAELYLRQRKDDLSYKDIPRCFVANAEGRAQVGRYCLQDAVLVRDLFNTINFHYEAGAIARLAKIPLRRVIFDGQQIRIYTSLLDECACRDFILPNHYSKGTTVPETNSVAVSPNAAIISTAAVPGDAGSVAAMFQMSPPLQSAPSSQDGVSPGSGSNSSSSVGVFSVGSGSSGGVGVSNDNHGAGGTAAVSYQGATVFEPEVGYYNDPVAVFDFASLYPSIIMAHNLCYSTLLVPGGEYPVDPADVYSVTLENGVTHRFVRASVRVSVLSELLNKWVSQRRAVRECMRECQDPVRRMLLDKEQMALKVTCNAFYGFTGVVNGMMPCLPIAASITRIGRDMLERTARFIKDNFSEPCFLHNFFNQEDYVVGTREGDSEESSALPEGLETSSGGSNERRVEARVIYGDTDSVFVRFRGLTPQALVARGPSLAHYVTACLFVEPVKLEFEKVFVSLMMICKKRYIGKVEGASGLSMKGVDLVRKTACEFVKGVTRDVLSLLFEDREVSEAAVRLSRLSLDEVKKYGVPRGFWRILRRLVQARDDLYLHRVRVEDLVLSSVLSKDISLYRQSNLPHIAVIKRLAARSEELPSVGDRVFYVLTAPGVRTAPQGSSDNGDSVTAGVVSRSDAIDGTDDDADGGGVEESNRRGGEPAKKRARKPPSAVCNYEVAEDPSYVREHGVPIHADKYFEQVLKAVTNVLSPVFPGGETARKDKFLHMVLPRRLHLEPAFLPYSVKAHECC
# Experiments:
# [1] = target: Human cytomegalovirus DNA polymerase (Human cytomegalovirus, UniProt P08546); test: CMV polymerase assay (AlphaLISA); type: biochemical; details: read-out: CMV (IC50); HCMV polymerase 0.2 nM; 30 min pre-incubation; 60 min at 37° C.
# Method: Human cytomegalovirus and varicella zoster virus DNA polymerases were expressed via baculovirus vector in SF21 cells and purified. Heterodimeric nucleic acid substrate used in the herpesvirus polymerase reactions was generated by annealing a 59-mer template to a 17-mer digoxigenin-labeled primer. Polymerase (HCMV final concentration of 0.2 nM; VZV final concentration of 0.4 nM) was combined with an inhibitor compound or DMSO in assay buffer (10 mM HEPES, pH 7.5, 25 mM KCl, 25 mM NaCl, 5 mM MgCl2, 5% glycerol, 0.67 mg/ml bovine serum albumin, and 1 mM tris(2-carboxyethyl)phosphine), and this mixture was pre-incubated for 30 minutes at room temperature in 384-well microtiter plates. The polymerization reaction was initiated by the addition of template/primer substrate (final concentration: 1.6 nM), and dNTPs (final concentration: 24 nM dCTP, 24 nMdGTP, 16 nM dATP, 16 nM dTTP, and 0.8 nM biotin-dUTP). After 60 min incubation at 37° C., reactions were terminated with quench buffer (25 mM HEPES pH 7.5, 100 mM NaCl, 0.25% Tween-20, 12 mM EDTA, and 1 mg/ml bovine serum albumin). Incorporation of biotinylated UTP was detected with 2.5-5 ug/ml anti-DIG AlphaLISA acceptor beads and 5-10 ug/ml streptavidin AlphaLISA donor beads (PerkinElmer). […]
# [2] = system: HCMV Strain AD169; test: Viral qPCR assay, HCMV; type: cell-based, Human cytomegalovirus; details: read-out: CMV Cell (EC50); MRC-5 cells; 0.05-0.1 pfu/cell; ~72 hrs; growth media or 50% fetal bovine serum; viral genome copies by qPCR
# Method: (§1) MRC5 cells, Vero cells, and MeWo cells were obtained from ATCC, and were maintained at 37° C./5% CO2/90% relative humidity in Minimal Essential Medium with 10% fetal bovine serum, […] L-glutamine, 100 units/ml penicillin and 100 ug/ml streptomycin. Assay plates were prepared by dispensing compounds dissolved in DMSO into wells of 384 well collagen-coated plates using an ECHO acoustic dispenser. Each compound was tested in a 10-point, serial 3-fold dilution. Controls included uninfected cells and infected cells treated only with DMSO. Assays were initiated by mixing selected cells, in suspension, with virus, and dispensing 50 μl/well infected cells to pre-plated compounds. […] Levels of a viral gene and of the cellular control, PPIA (Thermo Fisher Assay ID=Hs04194521_s1), were measured in separate 10 ul qPCR assays using TaqMan® Gene Expression Master Mix (Applied Biosystems), and an 7900HT Fast Real-Time PCR System with 384-Well Block Module. 7-point, serial 10-fold dilutions of a plasmid standard were run on each plate to generate a standard curve, and genome copies numbers were calculated by plotting experimental Ct onto linear regression of the standard curve. […] Calculated % effects were fit using a 4-parameter algorithm, and EC50 was reported. […]
# [3] = system: VZV; test: Viral qPCR assay, VZV; type: cell-based, varicella zoster virus; details: read-out: VZV Cell (EC50); MeWo or MRC5 cells; 0.04-0.1 pfu/cell; ~72 hrs; growth medium; viral genome copies by qPCR
# Method: as §1
# [4] = system: HSV-1 Strain F; test: Viral qPCR assay, HSV-1; type: cell-based, Herpes Simplex Virus type 1; details: read-out: HSV1 Cell (EC50); Vero or MRC5 cells; 0.0005-0.004 pfu/cell; ~72 hrs; growth medium; viral genome copies by qPCR
# Method: as §1
smiles,measurement,setting,value
"COc1nc(C2CC(O)C2)c(O[C@H]2CCN3C(=O)OC[C@@H]3C2)cc1C(=O)NCc1ccc(Cl)cc1 (single isomer, unassigned) [Compound 74]",IC50,[1],18 nM
same,EC50,[2],380 nM
same,EC50,[3],657 nM
same,EC50,[4],420 nM
